We go through twelve molecules from the supplement of paper PMC9931576.

Human monoclonal antibodies against the spike receptor-binding domain (heavy:light variable regions). IC50 against pseudoviruses bearing the spike of naturally observed variants; lower = stronger; >10 µg/ml means not reached at the top dose. No active / inactive call. The stated detection limit is 0.0005 µg/ml; values near or below 0.001 µg/ml lie at the floor of the assay.

The chains are these.
B1: XGv-158 (protein)
chain 1: QVQLVQSGAEVKKPGASVKVSCKTSGYTFSSYGISWVRQAPGQGLEWMGWISSYNGNTKYAQKLQGRVTMTTDTSTTTAYMELRSLTLDDTAVYYCARSLGLWFGVDYWGQGTLVTVSS
chain 2: NFMLTQPHSVSESPGETVTISCTGSSGSIASNYVQWYQQRPGSAPTTVIYEDNQRPSGVPDRFSGSIDSSSNSASLTISGLKTEDEADYYCQSYDGSNVIFGGGTKLTVL
B2: XGv-074 (protein)
chain 1: EVQLVESGGGLIQPGGSLRLSCAASGITVSANYMSWVRQAPGKGLEWVSVIYSGGSTYYADSVKGRFTISRDHSKNTLYLQMKNLRAEDTAVYYCARDRGSSGYLGDQPYEYWGQGTLVTVSS
chain 2: DIQMTQSPSSLSASVGDRVTITCQASQDINKYLNWYQQKPGKAPKLLIYGASNLETGVPSRFSGSGSGTDFTFTISSLRPEDIATYYCQQYDPLPVTFGGGTRVEIK
B3: XGv-107 (protein)
chain 1: QITLKESGPTLVKPTQTLTLTCTFSELSLSTSGVGVGWIRQPPGKALEWLALIYWDGDKRYSPSLKSRLTITKGTSKNQVVLTMTNMDPVDTATYYCAHHTVVTIFDYWGQGTLVTVSS
chain 2: QSALTQPASVSGSPGQSITISCTATSSDVGAYNYVSWYQQHPGKAPKLMIYEVSNRPSGVSNRFSGSKSGNTASLTISGLQAEDEADYYCSSYTTSSTVFGGGTKLTVL
B4: XGv-124 (protein)
chain 1: EVQLVESGGGLVKPGGSLRLSCAASGFTFNRYTLNWVRQAPGKGLEWVSSISSNSEYISYADSVKGRFTLSRDNAKNSMFLQMNSLRAEDTAVYYCARASPYDILTEGAFDYWGQGTLVTVSS
chain 2: EIVMTQSPATLSVSPGERVTLSCRASLSVSTNLAWYQQKPGQAPRLLIYGASTRATGLPARFSGSGSGTEFTLTITSLQSEDFAVYYCQQYHEWPTYTFGQGTKVEIK
B5: XGv-051 (protein)
chain 1: QVQLVQSGAEVKKPGSSVKVSCKASGGTFSNYALSWVRQAPGQGLEWMGGIIPIFGTTNYAQKFQGRVTITADESTSTAYMELSSLRSEDTAVYYCARLDGYSFGHDRYYQDGMDDWGPGTTVTVSS
chain 2: DIQMTQSPSSLSASVGDRVTITCRASQAIRNDLGWYQQKPGKAPKCLIYAASTLQSGVPSRFSGSGSGTEFTLTISSLQPEDFATYFCLQQNIYPRTFGQGTKVEI
B6: XGv-225 (protein)
chain 1: EVQLVESGGGFVQSGGSLRLSCAASGFTFSNYWMSWVRQAPGKGLEWVANIKQDGSETYYVDSVKGRFTISRDNALNSLFLQMHSLRADDTAVYYCARDLGILWFGELFRGVGRGQGTLVTVSS
chain 2: DIQMTQSPSSLSASVGDRVTITCRASQGISVSLAWYQQKPGTAPKLLLYAASTLESGVPSRFSGSGSGTDYTLTISSLQPEDFATYYCQQYYTIPRTFGQGTRVDIK
B7: XGv-080 (protein)
chain 1: QVQLQESGPGLVKPSGTLSLTCIVSGGSVTSGSYYWSWIRQPPGKGLEWIGYISYSGSTNYNPSLKSRVTISVDTSKNQFSLKLTSVTAADTAVYHCATRAYSTSWLGEGDAFDIWGQGTMVTVSS
chain 2: EIVLTQSPGTLSLSPGERATLSCRASQSVSYTYLAWFQQKPGQAPRLLIYGAFSRAPGIPDRFSGSGSGTDFTLTISRLEPEDFAVYYCQQYGSSIFTFGPGTKVDIK
B8: XGv-198 (protein)
chain 1: QVQLVQSGAEVKKPGSSVKVSCKASGGTFSSYTISWVRQAPGQGLEWMGKIFPVLGVANYAQNFQGRVTLTADKSTRTAFMELTSLRSDDTAVYYCARDFTYRTNYDAFDLWGQGTVVTVSS
chain 2: QSVLTQPPSVSGAPGQRVTISCTGSNSNIGAGYDVHWYQQLPGTAPKLLIYGNNNRPSGVPDRFSGSRSGTSASLAITGLQAEDEADYYCQSYDSSLTGVIFGGGTKLTVL
B9: XGv-212 (protein)
chain 1: QVQLVQSGTEVKKPGSSVKVSCKASGGTFSNTISWVRQAPGQGLEWMGRIIPILGVANYAQNFQGRVTISADKSTNTAYLELSSLRSEDTAVYFCARDNGYNDWYFDLWGRGTLVTVSS
chain 2: QSVLTQPPSVSGAPGQRVTISCTGSNSNIGAGYDVHWYQQLPGTAPKLLIYGNTNRPSGVPDRFSGSKSDTSASLAITGLQAEDEADYYCQSYDSSLSDSVFGGGTKLTVL
B10: XGv-174 (protein)
chain 1: QVQLVESGGGVVQPGRSLRLSCAASGFIFSSYVMHWVRQAPGKGLEWVALISYDGRRQYYADSVKGRFTISRANTNNTLFLHMNSLRTEDTAVYYCTTGDDPYRSAWYTQFDYWGQGALVTVSS
chain 2: QSVLTQPPSASGTPGQKVTISCSGSSSNIGSNSVNWYQQVPGTAPKLLIYDNTQRPSGVPDRFSGSKSATSASLAISGLQSEDEADYYCAAWDDSLHVVFGGGTKLTV
B11: XGv-175 (protein)
chain 1: QVQLVESGGGVVQPGRSLRLSCAASGFIFSSYVMHWVRQAPGKGLEWVALISYDGSSKYYADSVKGRFTISRANAKNTLYLQMNSLRTEDTAVYYCTTGDDPYRSAWYTQFDYWGQGTQVTVSS
chain 2: QSVLTQPPSASGTPGQKVTISCSGSSSNIGSNTVNWYQQVPGTAPKLLIYDNTQRPSGVPDRFSGSKSATSASLAISGLQSEDEADYYCAAWDDSLHVVFGGGTKLTVL
B12: XGv-152 (protein)
chain 1: QVQLVQSGAAVKEPGSSVKVSCKTSGGTFRNYAINWVRQAPGQGLEWMGGIIRIFDRTDYAQKFQGRITIIADETTNTAYMELRSLRSEDTAVYYCARGRALTRGILATMTMDVWGQGTTVTVSS
chain 2: DIVMTQSPDSLAVSLGERATINCKSSQSLLYSSNNKNFLGWYQQKPGQPPKLLIYWASTRESGVPDRFSGSGSGTDFTLTISSLQAEDVATYYCHQYYSMPLTFGGGTKVEIK

The first assay deals with SARS-CoV-2 Omicron BA.1 spike pseudovirus. Kind of assay: pseudovirus neutralization IC50; higher = weaker neutralization. The protocol:
(§1)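 Single-round VSV luciferase pseudovirus mixed with antibody dilutions for 1 h and put on Huh-7 cells for about a day; IC50 from the dose curve.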
On to B1, for which the “pseudovirus neutralization IC50” value was more than 10 µg/mL.
Take B2: the “pseudovirus neutralization IC50” value amounted to 0.276 µg/mL.
On the same count and under the same terms, under B3 stands 0.781 µg/mL.
For B4, the “pseudovirus neutralization IC50” value is 2.29 µg/mL.
Still for that read-out and setting: under B5 stands 0.00689 µg/mL; under B6, 0.562 µg/mL; under B7, 0.223 µg/mL.
Same read-out and setting: under B8 stands 0.7 µg/mL.
With B9, the “pseudovirus neutralization IC50” value is 0.189 µg/mL.
Regarding B10, the “pseudovirus neutralization IC50” value is 2.21 µg/mL.
Still for that read-out and setting: under B11 stands 0.0923 µg/mL; under B12, 1.02 µg/mL.

The target in a further assay is SARS-CoV-2 Omicron BA.2 spike pseudovirus. Described as above. Here is the method: as §1
As to B1, the “pseudovirus neutralization IC50” value is more than 10 µg/mL.
Still for that read-out and setting: under B2 stands 0.0966 µg/mL.
As to B3, the “pseudovirus neutralization IC50” value stood at 0.00956 µg/mL.
As for B4, the “pseudovirus neutralization IC50” value amounted to 2.16 µg/mL.
Still for that read-out and setting: under B5 stands 0.00714 µg/mL; under B6, 0.572 µg/mL; under B7, 0.357 µg/mL.
On to B8, for which the “pseudovirus neutralization IC50” value was found to be 0.565 µg/mL.
As for B9, the “pseudovirus neutralization IC50” value is 0.229 µg/mL.
Still for that read-out and setting: under B10 stands 1.74 µg/mL; under B11, 0.0849 µg/mL; under B12, 1.31 µg/mL.

In a further assay the target is SARS-CoV-2 Omicron BA.2.75 spike pseudovirus. The description is as above. The protocol: as §1
Turning to B1, the “pseudovirus neutralization IC50” value is more than 10 µg/mL.
Same read-out and setting: under B2 stands 0.0227 µg/mL; under B3, 0.678 µg/mL; under B4, 3.75 µg/mL.
On the same count and under the same terms, under B5 stands 0.00741 µg/mL; under B6, more than 10 µg/mL; under B7, 0.282 µg/mL.
Still for that read-out and setting: under B8 stands 0.421 µg/mL.
For B9, the “pseudovirus neutralization IC50” value turned out to be 0.251 µg/mL.
On the same count and under the same terms, under B10 stands 1.54 µg/mL.
In the case of B11, the “pseudovirus neutralization IC50” value worked out at 0.241 µg/mL.
On the same count and under the same terms, under B12 stands 1.86 µg/mL.

For a further assay, the target named is SARS-CoV-2 Omicron BA.5 spike pseudovirus. Described as above. Here is the method: as §1
B1: the “pseudovirus neutralization IC50” value was more than 10 µg/mL.
The same measure, in the same setting: under B2 stands 0.0316 µg/mL.
Turning to B3, the “pseudovirus neutralization IC50” value was determined as 0.0099 µg/mL.
On the same count and under the same terms, under B4 stands 2.5 µg/mL; under B5, more than 10 µg/mL.
Same read-out and setting: under B6 stands 0.468 µg/mL.
B7: the “pseudovirus neutralization IC50” value turned out to be 0.292 µg/mL.
On the same count and under the same terms, under B8 stands more than 10 µg/mL; under B9, 0.162 µg/mL; under B10, more than 10 µg/mL.
Still for that read-out and setting: under B11 stands more than 10 µg/mL.
On the same count and under the same terms, under B12 stands more than 10 µg/mL.

In another assay the target is SARS-CoV-2 Omicron BQ.1.1 spike pseudovirus. Described as above. The protocol:
as §1
In the case of B1, the “pseudovirus neutralization IC50” value was more than 10 µg/mL.
On the same count and under the same terms, under B2 stands 0.0983 µg/mL.
Regarding B3, the “pseudovirus neutralization IC50” value is more than 10 µg/mL.
Still for that read-out and setting: under B4 stands 2.42 µg/mL.
For B5, the “pseudovirus neutralization IC50” value was more than 10 µg/mL.
Same read-out and setting: under B6 stands more than 10 µg/mL; under B7, more than 10 µg/mL.
B8: the “pseudovirus neutralization IC50” value was more than 10 µg/mL.
As to B9, the “pseudovirus neutralization IC50” value was more than 10 µg/mL.
As for B10, the “pseudovirus neutralization IC50” value is more than 10 µg/mL.
B11: the “pseudovirus neutralization IC50” value is more than 10 µg/mL.
Turning to B12, the “pseudovirus neutralization IC50” value was more than 10 µg/mL.

A further assay concerns the target SARS-CoV-2 Omicron XBB spike pseudovirus. The description is as above. The protocol: as §1
Regarding B1, the “pseudovirus neutralization IC50” value was more than 10 µg/mL.
Still for that read-out and setting: under B2 stands 0.183 µg/mL.
In the case of B3, the “pseudovirus neutralization IC50” value was more than 10 µg/mL.
The same measure, in the same setting: under B4 stands 2.1 µg/mL; under B5, more than 10 µg/mL.
On the same count and under the same terms, under B6 stands more than 10 µg/mL; under B7, more than 10 µg/mL.
On the same count and under the same terms, under B8 stands more than 10 µg/mL; under B9, 0.444 µg/mL.
Regarding B10, the “pseudovirus neutralization IC50” value is more than 10 µg/mL.
Take B11: the “pseudovirus neutralization IC50” value was more than 10 µg/mL.
The same measure, in the same setting: under B12 stands more than 10 µg/mL.

Another assay concerns the target SARS-CoV-2 early D614G spike pseudovirus. Described as above. The protocol: as §1
Turning to B1, the “pseudovirus neutralization IC50” value worked out at 0.354 µg/mL.
Still for that read-out and setting: under B2 stands 0.0837 µg/mL.
Still for that read-out and setting: under B3 stands 0.0291 µg/mL; under B4, 0.736 µg/mL.
On the same count and under the same terms, under B5 stands 0.00876 µg/mL.
Consider B6, for which the “pseudovirus neutralization IC50” value stood at 0.0726 µg/mL.
Same read-out and setting: under B7 stands more than 10 µg/mL; under B8, 0.0938 µg/mL; under B9, 0.162 µg/mL.
On the same count and under the same terms, under B10 stands 0.017 µg/mL; under B11, 0.0251 µg/mL.
On the same count and under the same terms, under B12 stands 0.0358 µg/mL.
